# Biological target: the molecule itself
# Test: fiber assembly (self-association) followed by CongoRed binding
row,Protein,binding result
1,NM^P138C (other) MSDSNQGNNQQNYQQYSQNGNQQQGNNRYQGYQAYNAQAQPAGGYYQNYQGYSGYQQGGYQQYNPDAGYQQQYNPQGGYQQYNPQGGYQQQFNPQGGRGNYKNFNYNNNLQGYQAGFQPQSQGMSLNDFQKQQKQAACKPKKTLKLVSSSGIKLANATKKVGTKPAESDKKEEEKSAETKEPTKEPTKVEEPVKKEEKPVQTEEKTEEKSELPKVEDLKISESTHNTNNANVTSADALIKEQEEEVDDEVVND,binds
2,NM^S2C (other) MCDSNQGNNQQNYQQYSQNGNQQQGNNRYQGYQAYNAQAQPAGGYYQNYQGYSGYQQGGYQQYNPDAGYQQQYNPQGGYQQYNPQGGYQQQFNPQGGRGNYKNFNYNNNLQGYQAGFQPQSQGMSLNDFQKQQKQAAPKPKKTLKLVSSSGIKLANATKKVGTKPAESDKKEEEKSAETKEPTKEPTKVEEPVKKEEKPVQTEEKTEEKSELPKVEDLKISESTHNTNNANVTSADALIKEQEEEVDDEVVND,binds
3,NM^G43C (other) MSDSNQGNNQQNYQQYSQNGNQQQGNNRYQGYQAYNAQAQPACGYYQNYQGYSGYQQGGYQQYNPDAGYQQQYNPQGGYQQYNPQGGYQQQFNPQGGRGNYKNFNYNNNLQGYQAGFQPQSQGMSLNDFQKQQKQAAPKPKKTLKLVSSSGIKLANATKKVGTKPAESDKKEEEKSAETKEPTKEPTKVEEPVKKEEKPVQTEEKTEEKSELPKVEDLKISESTHNTNNANVTSADALIKEQEEEVDDEVVND,binds
4,NM^E203C (other) MSDSNQGNNQQNYQQYSQNGNQQQGNNRYQGYQAYNAQAQPAGGYYQNYQGYSGYQQGGYQQYNPDAGYQQQYNPQGGYQQYNPQGGYQQQFNPQGGRGNYKNFNYNNNLQGYQAGFQPQSQGMSLNDFQKQQKQAAPKPKKTLKLVSSSGIKLANATKKVGTKPAESDKKEEEKSAETKEPTKEPTKVEEPVKKEEKPVQTCEKTEEKSELPKVEDLKISESTHNTNNANVTSADALIKEQEEEVDDEVVND,binds
5,NM^T158C (other) MSDSNQGNNQQNYQQYSQNGNQQQGNNRYQGYQAYNAQAQPAGGYYQNYQGYSGYQQGGYQQYNPDAGYQQQYNPQGGYQQYNPQGGYQQQFNPQGGRGNYKNFNYNNNLQGYQAGFQPQSQGMSLNDFQKQQKQAAPKPKKTLKLVSSSGIKLANACKKVGTKPAESDKKEEEKSAETKEPTKEPTKVEEPVKKEEKPVQTEEKTEEKSELPKVEDLKISESTHNTNNANVTSADALIKEQEEEVDDEVVND,binds
6,NM^Q38C (other) MSDSNQGNNQQNYQQYSQNGNQQQGNNRYQGYQAYNACAQPAGGYYQNYQGYSGYQQGGYQQYNPDAGYQQQYNPQGGYQQYNPQGGYQQQFNPQGGRGNYKNFNYNNNLQGYQAGFQPQSQGMSLNDFQKQQKQAAPKPKKTLKLVSSSGIKLANATKKVGTKPAESDKKEEEKSAETKEPTKEPTKVEEPVKKEEKPVQTEEKTEEKSELPKVEDLKISESTHNTNNANVTSADALIKEQEEEVDDEVVND,binds
7,NM^L144C (other) MSDSNQGNNQQNYQQYSQNGNQQQGNNRYQGYQAYNAQAQPAGGYYQNYQGYSGYQQGGYQQYNPDAGYQQQYNPQGGYQQYNPQGGYQQQFNPQGGRGNYKNFNYNNNLQGYQAGFQPQSQGMSLNDFQKQQKQAAPKPKKTCKLVSSSGIKLANATKKVGTKPAESDKKEEEKSAETKEPTKEPTKVEEPVKKEEKPVQTEEKTEEKSELPKVEDLKISESTHNTNNANVTSADALIKEQEEEVDDEVVND,binds
8,NM^S234C (other) MSDSNQGNNQQNYQQYSQNGNQQQGNNRYQGYQAYNAQAQPAGGYYQNYQGYSGYQQGGYQQYNPDAGYQQQYNPQGGYQQYNPQGGYQQQFNPQGGRGNYKNFNYNNNLQGYQAGFQPQSQGMSLNDFQKQQKQAAPKPKKTLKLVSSSGIKLANATKKVGTKPAESDKKEEEKSAETKEPTKEPTKVEEPVKKEEKPVQTEEKTEEKSELPKVEDLKISESTHNTNNANVTCADALIKEQEEEVDDEVVND,binds
9,NM^G68C (other) MSDSNQGNNQQNYQQYSQNGNQQQGNNRYQGYQAYNAQAQPAGGYYQNYQGYSGYQQGGYQQYNPDACYQQQYNPQGGYQQYNPQGGYQQQFNPQGGRGNYKNFNYNNNLQGYQAGFQPQSQGMSLNDFQKQQKQAAPKPKKTLKLVSSSGIKLANATKKVGTKPAESDKKEEEKSAETKEPTKEPTKVEEPVKKEEKPVQTEEKTEEKSELPKVEDLKISESTHNTNNANVTSADALIKEQEEEVDDEVVND,binds
10,NM^E167C (other) MSDSNQGNNQQNYQQYSQNGNQQQGNNRYQGYQAYNAQAQPAGGYYQNYQGYSGYQQGGYQQYNPDAGYQQQYNPQGGYQQYNPQGGYQQQFNPQGGRGNYKNFNYNNNLQGYQAGFQPQSQGMSLNDFQKQQKQAAPKPKKTLKLVSSSGIKLANATKKVGTKPACSDKKEEEKSAETKEPTKEPTKVEEPVKKEEKPVQTEEKTEEKSELPKVEDLKISESTHNTNNANVTSADALIKEQEEEVDDEVVND,binds
11,"NM^K184C (other, also called K184C fibers) MSDSNQGNNQQNYQQYSQNGNQQQGNNRYQGYQAYNAQAQPAGGYYQNYQGYSGYQQGGYQQYNPDAGYQQQYNPQGGYQQYNPQGGYQQQFNPQGGRGNYKNFNYNNNLQGYQAGFQPQSQGMSLNDFQKQQKQAAPKPKKTLKLVSSSGIKLANATKKVGTKPAESDKKEEEKSAETKEPTCEPTKVEEPVKKEEKPVQTEEKTEEKSELPKVEDLKISESTHNTNNANVTSADALIKEQEEEVDDEVVND",binds

# Biological target: the molecule itself
# Test: fiber assembly (self-association) followed by CongoRed binding; no detectable fibers by EM
row,Protein,binding result
1,NM^L238C (other) MSDSNQGNNQQNYQQYSQNGNQQQGNNRYQGYQAYNAQAQPAGGYYQNYQGYSGYQQGGYQQYNPDAGYQQQYNPQGGYQQYNPQGGYQQQFNPQGGRGNYKNFNYNNNLQGYQAGFQPQSQGMSLNDFQKQQKQAAPKPKKTLKLVSSSGIKLANATKKVGTKPAESDKKEEEKSAETKEPTKEPTKVEEPVKKEEKPVQTEEKTEEKSELPKVEDLKISESTHNTNNANVTSADACIKEQEEEVDDEVVND,no binding
